Pooled drug test results. Numbers come from NIAID ChemDB, via PubChem.

Common to all: cytotoxicity tests; cells: CEM; read-out: CC50

Conditions beyond the fields shown may differ between rows. CCn is the concentration with n% toxicity to the cells. Blank or dashed fields: not listed here.

smiles	read by	result
COc1ccc2c(c1)C(=O)C(=O)C(C1=C(Cl)C(=O)c3ccccc3C1=O)=C2O	MTT	5.3 µM
O=c1[nH]c(=O)n([C@@H]2CS[C@H](CO)O2)cc1/C=C/Br		>100 µM
CN1CCN(C(=O)c2ccc3c(=O)c4ccccc4[nH]c3c2)CC1		43.09 µM
Fc1ccccc1C1SCc2nc3ncccc3n21		>95.9 µM
C#CCOC(=O)c1cc(NC(=S)OC(C)C)ccc1Cl		51.32 µM
Cc1ccoc1C(=S)Nc1ccc(Cl)c(C(=O)OC(C)C)c1		23 µM
COc1ccc2nc(Cl)c(/C=C/C(=O)c3c4ccccc4cc4ccccc34)cc2c1	MTS	9.8 µM
Cc1ccsc1C(=S)Nc1ccc(Cl)c(C(=O)OC2CCCCC2)c1		37 µM
CC(C)OC(=S)Nc1ccc(Cl)c(C(=O)OC(C)(C)C)c1		14.9 µM
CN1CCN(C(=O)c2ccc3c(=O)c4ccccc4[nH]c3c2)CC1		16 µg/mL
CC(C)=CCCC1(C)C=Cc2c(ccc3c2C(=O)C(=O)C(C2=C(I)C(=O)c4ccccc4C2=O)=C3O)O1	MTT	4.3 µM
CCC(CC)COC(=O)c1cc(NC(=S)OC(C)C)ccc1Cl		18.16 µM
COc1ccc2nc(Cl)c(/C=C/C(=O)c3ccc4ccccc4c3)cc2c1	MTS	>100 µM
CCOC(=O)COc1cc(NC(=S)OC(C)C)ccc1Cl		124 µM
O=c1[nH]c2ccc(Cc3cccc(F)c3)cc2s1		6.3 µg/mL
COc1ccc2nc(Cl)c(/C=C/C(=O)c3cc(C)cs3)cc2c1	MTS	15 µM
COC(=O)c1cc(NC(=S)OC(C)C)ccc1Cl		146 µM
CC1=C(C(=O)Nc2ccc(Cl)c(C(=O)OC(C)C)c2)SCCO1		8.8 µg/mL
CCC(CC)Oc1ccc(NC(=O)c2ccccc2SSc2ccccc2C(=O)Nc2ccc(OC(CC)CC)cc2)cc1		92 µM
Cn1cccc1C(=S)Nc1ccc(Cl)c(/C=N/OC(C)(C)C)c1		36 µM
Nc1ccn([C@@H]2CC[C@H](CO)O2)c(=O)n1		70 µM
CCOC(=O)c1cc(NC(=S)OC(C)C)ccc1Cl		9.2 µM
Cc1sccc1C(=S)Nc1ccc(Cl)c(C(=O)OC(C(C)C)C(C)C)c1		14 µM
Nc1ccn([C@H]2S[C@@H](CO)C=C2F)c(=O)n1		>100 µM
CCCCC(=O)c1ccc2c(c1)sc(=O)n2Cc1ccccc1		3.6 µg/mL
Cc1ccc2nc(Cl)c(/C=C/C(=O)c3ccc(Br)s3)cc2c1	MTS	31.6 µM
CC(C)OC(=O)Oc1cc(NC(=S)OC(C)C)ccc1Cl		226 µM
Nc1ccc([C@H]2CC(=O)[C@@H](CO)O2)c(F)c1		>500 µM
CC(C)=CCC[C@]1(C)C=Cc2c(ccc3c2C(=O)C(=O)C(C2=C(Cl)C(=O)c4ccccc4C2=O)=C3O)O1	MTT	2.7 µM
O=c1[nH]c(=O)n([C@H]2C=C[C@@H](CO)O2)cc1CCO	MTT	>1 µM
CC(C)c1c(Cc2ccccc2)n(COCc2ccccc2)c(=O)[nH]c1=O		>10 µM
COC(=O)Cc1cn([C@H]2C=C[C@@H](COP(=O)(N[C@@H](C)C(=O)OC)Oc3ccccc3)O2)c(=O)[nH]c1=O	MTT	>100 µM
CC(C)OC(=S)Nc1ccc(Cl)c(C(=O)OC2CCCC2)c1		13.75 µM
Fc1cccc(F)c1C1SCc2nc3ncccc3n21		>62 µM
COC(=O)Oc1ccc(NC(=O)C2=C(C)OCCS2)cc1C(=O)OC(C)C		18 µg/mL
CSC(=Nc1ccc(Cl)c(C(=O)OC(C)C)c1)OC(C)C		72.32 µM
CCCCCC(=O)NCCCCCCC(=O)O		95 µg/mL
Nc1nc(=O)n([C@@H]2CC[C@H](CO)O2)cc1F		67 µM
Nc1ccc(C(=O)c2ccc3[nH]c(=O)oc3c2)cc1		108 µg/mL
COc1nc2nc([C@@H](O)[C@@H](O)CO)cnc2c(=O)n1C	XTT	>890 µM
Cc1ccc2nc(Cl)c(/C=C/C(=O)c3cc(Cl)sc3Cl)cc2c1	MTS	11.9 µM
CCC(C)OC(=O)c1cc(NC(=S)OC(C)C)ccc1Cl		18.19 µM
C/C=C/COc1cc(NC(=S)c2ccoc2C)ccc1Cl		15 µM
O=c1[nH]c(=O)n([C@H]2O[C@@H](CO)[C@H](O)[C@H]2F)cc1/C=C/Br		>100 µM
C=CCOC(=O)c1cc(NC(=S)OC(C)C)ccc1Cl		66.92 µM
COc1ccc2nc(Cl)c(/C=C/C(=O)c3cc4ccccc4o3)cc2c1	MTS	10.8 µM
CC(C)OC(=O)c1cc(NC(=O)OCC2CC2)ccc1Cl		22.45 µM
O=C(c1cccc(F)c1)c1ccc2c(c1)oc(=O)n2CCN1CCCCC1		16 µg/mL
COc1ccc2c(c1)C(=O)C(Cl)=C(C1=C(O)c3ccccc3C(=O)C1=O)C2=O	MTT	12 µM
Cc1occc1C(=S)Nc1ccc(Cl)c(/C=N/OCc2ccccc2)c1		>259 µM
COCCOC(=O)c1cc(NC(=O)C2=C(C)OCCS2)ccc1Cl		>100 µg/mL
COC(=O)CCCCCCCCCCC(=O)O		>100 µg/mL
Cc1ccsc1C(=S)Nc1ccc(Cl)c(/C=N/OC(C)(C)C)c1		32 µM
COc1nc(N[C@H]2OC[C@@H](O)[C@H](O)[C@H]2O)c(N=C[C@@H](O)[C@H](O)[C@H](O)CO)c(=O)n1C	XTT	>580 µM
CC1=C(C(=O)Nc2cc(C(=O)OC(C)C)c(F)cc2F)SCCO1		>100 µg/mL
c1ccc(C2SCc3nc4ncccc4n32)cc1		324 µM
CCCOC(=O)CCCCCCCCC(=O)O		>100 µg/mL
COC(=O)[C@H](C)NP(=O)(OC[C@@H]1C=C[C@H](n2cc(CCCNC(=O)C(F)(F)F)c(=O)[nH]c2=O)O1)Oc1ccccc1	MTT	4.3 µM
Brc1ccccc1C1SCc2nc3ncccc3n21		>78.3 µM
O=C(Nc1ccc(O)cc1)c1ccccc1SSc1ccccc1C(=O)Nc1ccc(O)cc1		33 µM
CNC(=O)CCCCCCCCCCC(=O)O		165 µg/mL
CSc1ccc(NC(=S)OC(C)C)cc1C(=O)OC(C)C		>305 µM
COc1ccc2nc(Cl)c(/C=C/C(=O)c3cc(C)sc3C)cc2c1	MTS	1.6 µM
CCCCNC(=O)CCCCCCCC(=O)O		>100 µg/mL
CC1=C(C(=S)Nc2ccc(Cl)c(C=NOC(C)(C)C)c2)CCCO1		27 µM
O=c1ccn([C@H]2CCC[C@@H]2CO)c(=O)[nH]1		>100 µg/mL
O=C(O)c1ccc(NC(=O)c2ccccc2SSc2ccccc2C(=O)Nc2ccc(C(=O)O)cc2)cc1		28 µM
CC1(C)C=Cc2c(ccc3c2C(=O)C(=O)C(C2=C(Cl)C(=O)c4ccccc4C2=O)=C3O)O1	MTT	5.5 µM
Cc1ccsc1C(=S)Nc1ccc(Cl)c(C(=O)OC(C(C)C)C(C)C)c1		73 µM
COC(=S)Nc1ccc(Cl)c(C(=O)OC(C)C)c1		122 µM
CCCCCCCCCC(=O)NCCC(=O)O		66 µg/mL
COC(=O)[C@H](C)NP(=O)(OC[C@@H]1C=C[C@H](n2cc(CC(=O)NCCCCCCCCCCCCNC(=O)C(F)(F)F)c(=O)[nH]c2=O)O1)Oc1ccccc1	MTT	>10 µM
O=c1ccn([C@H]2CCC[C@H]2CO)c(=O)[nH]1		>100 µg/mL
CC1=C(C(=O)Nc2ccc(Cl)c(C(=O)OCC3CCC3)c2)SCCO1		20 µg/mL
COC1=C(C2=C(Br)C(=O)c3cc(OC)ccc3C2=O)C(=O)c2ccccc2C1=O	MTT	2.8 µM
COC(=O)[C@H](C)NP(=O)(OC[C@H]1C=C[C@@H](n2cc(CC(=O)NCCCCCCNC(=O)C(F)(F)F)c(=O)[nH]c2=O)O1)Oc1ccccc1	MTT	>100 µM
O=C(Nc1ccc(Br)cc1)c1ccccc1SSc1ccccc1C(=O)Nc1ccc(Br)cc1		40 µM
Cc1ccccc1C(=S)Nc1ccc(Cl)c(C(=O)OC(C)C)c1		73 µM
Nc1ncnc2c1ncn2CC(CF)OCP(=O)(O)O	cell count	>100 µM
CO/N=C(\C)COc1cc(NC(=S)OC(C)C)ccc1Cl		16.93 µM
COC1=C(C2=C(C3=C(O)C(=O)c4ccccc4C3=O)C(=O)c3ccccc3C2=O)C(=O)c2ccccc2C1=O	MTT	>100 µM
O=c1[nH]c(=O)n([C@H]2CCC[C@H]2CO)cc1I		68.7 µg/mL

A second listing of 11 rows from above:

smiles	read by	result
COCCOC(=O)c1cc(NC(=O)C2=C(C)OCCS2)ccc1Cl		>100 µg/mL
c1ccc(C2SCc3nc4ncccc4n32)cc1		324 µM
CCCCC(=O)c1ccc2c(c1)sc(=O)n2Cc1ccccc1		3.6 µg/mL
CC(C)=CCCC1(C)C=Cc2c(ccc3c2C(=O)C(=O)C(C2=C(I)C(=O)c4ccccc4C2=O)=C3O)O1	MTT	4.3 µM
Cc1ccsc1C(=S)Nc1ccc(Cl)c(/C=N/OC(C)(C)C)c1		32 µM
Cc1ccccc1C(=S)Nc1ccc(Cl)c(C(=O)OC(C)C)c1		73 µM
O=C(c1cccc(F)c1)c1ccc2c(c1)oc(=O)n2CCN1CCCCC1		16 µg/mL
CCCCCC(=O)NCCCCCCC(=O)O		95 µg/mL
Brc1ccccc1C1SCc2nc3ncccc3n21		>78.3 µM
COc1ccc2c(c1)C(=O)C(Cl)=C(C1=C(O)c3ccccc3C(=O)C1=O)C2=O	MTT	12 µM
CO/N=C(\C)COc1cc(NC(=S)OC(C)C)ccc1Cl		16.93 µM